# Share of PSTVd loop 6 variants by leaf site

Reference: Wu et al. 2024, doi:10.1371/journal.ppat.1012142.

PSTVd intermediate strain, loop 6: wild type UGACCGCGAG, pool pattern UNNNCGNNNG; upper and lower strand joined, each 5' to 3', the first 5 letters being the upper strand, closing pairs included.

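A pool of all variants was put on leaves of three Nicotiana benthamiana plants. Samples came from the inoculated region at 5 days, the leaf margin at 10 and upper systemic leaves at 12.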

Numbers give reads per thousand; 0 = not seen among the reads, higher = more abundant.
Each value is the mean of three plants.
"Pool" is the share in the plasmid pool used as inoculum, on the same scale.
The inoculated region was read from the minus strand, the other sites from the plus strand.
IR is the inoculated region, LM the leaf margin, Sys the systemic leaves.
With 36,220-57,551 reads a sample, very low values are single reads.
The authors trace changes outside the varied positions to PCR and sequencing errors or to mutation in the plant; presence does not show that a variant is infectious alone.
Wild type was 20.7 per thousand in the pool and the most common sequence in every sample (inoculated region 195, 198, 203; leaf margin 629, 591, 734; systemic leaves 942, 870, 868).

sequence,pool,IR,LM,Sys
UCCGCGUUCG,0.222,0.0832,0.0261,0
UAGUCGUCAG,0.248,0.112,0,0
UUUCCGAGCG,0.183,0.0722,0.0324,0
UUGCCGUGUG,0.405,0.102,0.00773,0
GGACCGGCCG,0.0261,0.0236,0,0
UCUUCGCGAG,0.340,0.520,0.737,0.0547
UCAACGAUCG,0.209,0.0599,0.00920,0
UAGACGUAUG,0.235,0.0890,0.118,0
UCAUCGAUUG,0.275,0.0780,0,0
UCAACGUUCG,0.131,0.113,0,0
UUGACGUUCG,0.235,0.0540,0.0460,0
UGUUCGGUGG,0.301,0.119,0.00920,0
UCUACGGAGG,0.196,0.102,0.0353,0
UAGCCGGAUG,0.275,0.0893,0.273,0
UGAACGCGCG,0.105,0.127,0.0155,0
UUGGCGGGGG,0.288,0.0599,0,0
UACGCGUAGG,0.275,0.124,0,0
UAAUCGCAUG,0.248,0.0826,0,0.00684
UGAUCGGUUG,0.209,0.0887,0.00773,0.00599
UUAACGCUCG,0.301,0.524,0.108,0.0196
UCUUCGCUGG,0.196,0.118,0,0
UGCACGUUGG,0.275,0.0954,0.00773,0
UAUACGCAUG,0.301,0.102,0,0
UGUGCGGCCG,0.209,0.124,0.0247,0
UUAACGUGAG,0.235,0.799,0.149,0.0407
UCUGCGAGCG,0.235,0.0831,0.00773,0
UAGACGAUCG,0.248,0.125,0.0247,0
UGGACGCUAG,0.131,0.108,0.0169,0
UAAUCGGGUG,0.275,0.607,0.0830,0
UCCACGUCCG,0.288,0.0900,0.00773,0
UAAACGUUCG,0.170,0.547,0.102,0.0331
UAGACUGUGG,0.0131,0,0,0
UGGGCGUAAG,0.157,0.0829,0.00773,0
UACUCGUGAG,0.170,0.0766,0.0155,0
UCCGCGGGAG,0.131,0.114,0,0
UCAACGAGGG,0.0915,0.0766,0.00920,0
UCAACGGUCG,0.248,0.661,0.119,0

The first 2 entries again:

- UCCGCGUUCG (pool 0.222) = IR 0.0832; LM 0.0261; Sys 0
- UAGUCGUCAG (pool 0.248) = IR 0.112; LM 0; Sys 0